Assay [1] deals with recombinant soluble homotrimeric HA of A/Wisconsin/67/05 (H3N2) (Influenza A virus A/Wisconsin/67/05 …).
The target in assay [2] is T1, recombinant soluble homotrimeric HA of A/Solomon Islands/3/06 (H1N1) (Influenza A virus A/Solomon …). The assay is described as follows: microarray, control antibody, trimeric HA.
Assay [3] concerns the target recombinant soluble homotrimeric HA of A/California/4/09 (H1N1) (Influenza A virus A/California/4/09 …). The assay is described as follows: microarray, control antibody, trimeric HA.
In assay [4] the target is T2, M2 variant of A/chicken/Hong Kong/YU427/2003 (H9N2), expressed on 293 cells (influenza A virus A/chicken/Hong …).
T2 chain: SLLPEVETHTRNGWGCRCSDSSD
In words: flow cytometry on 293 cells transfected with natural M2 variants (FIG. 19b). (In general: In flow cytometry, cells or beads pass a laser one at a time.)

Assay [5] addresses T3, M2 variant of A/Panama/1/1966 (H2N2), expressed on 293 cells (influenza A virus A/Panama/1/66 (H2N2)).
T3 chain: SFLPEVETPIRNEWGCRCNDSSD
Described as above.

Assay [6] deals with T4, M2 variant of A/chicken/Hong Kong/SF1/2003 (H9N2), expressed on 293 cells (influenza A virus A/chicken/Hong …).
T4 chain: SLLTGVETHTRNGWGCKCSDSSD
The assay is described as above.

Assay [7] addresses recombinant soluble homotrimeric HA of A/Hong Kong/2108/03 - H9N2 (Influenza A virus A/HK/2108/2003 (H9N2)). The assay is described as follows: micro-array; captured IgG, V5-tagged trimeric HA.
In assay [8] the target is T5, hemagglutinin (HA) of influenza A/Wisconsin/67/05 H3N2 (Influenza A virus A/Wisconsin/67/2005 …). The assay is described as follows: ELISA, inactivated whole virions coated; transfection supernatant set 1. Background: An ELISA detects its analyte on a solid surface through an enzyme-linked reagent.
Assay [9] has as its target T5, hemagglutinin (HA) of influenza …. The assay is described as follows: ELISA, inactivated whole virions coated; transfection supernatant set 3.
Assay [10] shares this target. In words: ELISA, inactivated whole virions coated; transfection supernatant set 5.
For assay [11] the target is unchanged. In words: ELISA, inactivated whole virions coated; transfection supernatant set 4.
Assay [12] has the same target. In words: ELISA, inactivated whole virions coated; transfection supernatant set 2.
Assay [13] addresses recombinant soluble homotrimeric HA of A/Japan/305/57 (H2N2) (Influenza A virus A/Japan/305/57 (H2N2)).
The target in assay [14] is recombinant soluble homotrimeric HA of A/Netherlands/219/03 (H7N7) (Influenza A virus A/Netherlands/219/03 …).
Assay [15] deals with recombinant soluble homotrimeric HA of A/duck/Yangzhou/02/05 (H8N4) (Influenza A virus …). The assay is described as follows: microarray, BCC supernatant IgG, trimeric HA.
For assay [16], the target named is T1, recombinant soluble homotrimeric HA of …. The assay is described as follows: microarray, BCC supernatant IgG, trimeric HA.
In assay [17] the target is recombinant soluble homotrimeric HA of A/Anhui/1/05 (H5N1) (Influenza A virus A/Anhui/1/05 (H5N1)).
Assay [18] addresses recombinant soluble homotrimeric HA of A/Indonesia/5/05 (H5N1) (Influenza A virus A/Indonesia/5/05 …).
The target in assay [19] is recombinant soluble homotrimeric HA of A/Hong Kong/2108/03 (H9N2) (Influenza A virus A/Hong Kong/2108/03 …). In words: microarray, BCC supernatant IgG, trimeric HA.
Assay [20] concerns the target recombinant soluble homotrimeric HA of A/chicken/Vietnam/NCVD-016/08 (H5N1) (Influenza A virus …). In words: microarray, BCC supernatant IgG, trimeric HA.
The target in assay [21] is recombinant soluble homotrimeric HA of A/Egypt/3300-NAMRU3/08 - H5N1 (Influenza A virus …). In words: micro-array; captured IgG, V5-tagged trimeric HA.
The target in assay [22] is recombinant soluble homotrimeric HA of A/chicken/Vietnam/NCVD-016/08 - H5N1 (Influenza A virus …). The assay is described as follows: micro-array; captured IgG, V5-tagged trimeric HA.
In assay [23] the target is recombinant soluble homotrimeric HA of A/northern shoveler/California/HKWF115/2007 - H6N1 (Influenza A virus A/northern …). In words: micro-array; captured IgG, V5-tagged trimeric HA.

B1: TCN-504 (3251_K17) (antibody, V domains shown)
VH: QVQLQESGPGLVKPSETLSLTCAVSGVSISNIDFYWGWIRQPPGKGLEWIGNIYYTGITFYNPSLSSRVAISIDTSKNQFSLTLTSVTAADTAMYYCARHYGDSEAINDAFDIWGQGTMLTVSS
VL: EIVMTQSPATLSVSPGERATLSCRASQSVGNSLAWYQQRPGQAPRLLIYGASTRATGIPPRFSGSGSGTEFTLTISSLQTEDFAVYYCQQYINWRPLSFGGGTKVEIK
With B1, the “Trimeric HA Binding: RLU” value in assay [1] amounted to 40500 RLU; in [2], 24100 RLU; in assay [3] it was 3330 RLU.

B2: TCN-032 (8I10) (antibody, V domains shown)
VH: QVQLQESGPGLVKPSETLSLTCTVSGSSISNYYWSWIRQSPGKGLEWIGFIYYGGNTKYNPSLKSRVTISQDTSKSQVSLTMSSVTAAESAVYFCARASCSGGYCILDYWGQGTLVTVSS
VL: DIQMTQSPSSLSASVGDRVTITCRASQNIYKYLNWYQQRPGKAPKGLISAASGLQSGVPSRFSGSGSGTDFTLTITSLQPEDFATYYCQQSYSPPLTFGGGTRVEIK
Take B2: the binding result in assay [4], in [5] and in assay [6] was “binds” each time.

B3: TCN-523 (5248_A17) (antibody, V domains shown)
VH: QVQLVQSGAEVKKPGSSVKVSCKASGGSFSNYAFSWVRQAPGQGLEWMGGTIPLLGTTNYAQKFQGRVTISADQFTSTAYMELGSLRSEDTAVYYCTRRKMTTAFDSWGQGTLVTVSS
VL: QPVLTQPPSASASLGASVTLTCTLSSAYSNYKVDWYQQRPGKGPRFVMRVGTGGIVGSKGDGIPDRFSVLGSGLNRYLTIKNIQEEDESDYHCGADHGSGSNFVSPYVFGGGTKLTVL
For the molecule B3, the “Trimeric HA Binding: RLU” value in assay [7] was 38 RLU.

B4: TCN-523 (5248_A17) (antibody, V domains shown)
VH: B3 VH
VL: B3 VL
Consider B4, for which the OD450 was found to be 0.09 OD450 in [8]; 0.15 OD450 in assay [9]; 0.14 OD450 in assay [10]; 0.09 OD450 in [11]; 0.09 OD450 in [12].

B5: TCN-547 (5092_F11) (antibody, V domains shown)
VH: QVQLQESGPGLVKPSQTLSLTCTVSGDSISSVDHYWSWIRQHPVKGLEWIGFMYYSASTYYNPSLKSRVTISTDTSKNQFSLRLSSVTAADTAVYYCARGTCAGDCSLHYYYYGLDVWGQGRTVTVSS
VL: DIQMTQSPSSLSASVGDRVTITCRASQSISSYLNWYQHKPGKAPKVLMYAVSILQSGVPSRFSGSGSGADFTLTISSLQPEDFATYYCQQSYSSPLTFGGGTKVEIK
Turning to B5, the “Trimeric HA Binding: RLU” value in assay [13] turned out to be 40 RLU; in assay [14], 401 RLU; in assay [1], 16900 RLU; in assay [15] it was 278 RLU; in assay [16], 155 RLU.

B6: TCN-031 (23K12) (antibody, V domains shown)
VH: EVQLVESGGGLVQPGGSLRISCAASGFTVSSNYMSWVRQAPGKGLEWVSVIYSGGSTYYADSVKGRFSFSRDNSKNTVFLQMNSLRAEDTAVYYCARCLSRMRGYGLDVWGQGTTVTVSS
VL: DIQMTQSPSSLSASVGDRVTITCRTSQSISSYLNWYQQKPGKAPKLLIYAASSLQSGVPSRFSGSGSGTDFTLTISGLQPEDFATYYCQQSYSMPAFGQGTKLEIK
Turning to B6, the binding result in [4], in [5] and in [6] was “binds” each time.

B7: TCN-546 (5089_L08) (antibody, V domains shown)
VH: QVQLQQWGAGLLKPSETLSLTCGVYGGSLSDYYWSWIRQPPGKGLEWIGEINHSGGTNYNPSLKRRVTISVDTSKKQFSLKMNSVTAADTAVYYCARGTDPDTEVYCRAGNCAAFDFWGQGTLVTVSS
VL: EIVLTQSPGTLSLSPGERATLSCRASHFVIGRAVAWYQQKPGQAPRLLIYGASSRATGIPDRFSGSGSGTDFTLTISRLETEDFAVFYCQHYGSSPRYAFGQGTKLEIK
Take B7: the “Trimeric HA Binding: RLU” value in assay [17] worked out at 2040 RLU; in assay [13], 520 RLU; in assay [18], 18400 RLU; in assay [1], 30200 RLU; in assay [19], 13000 RLU; in [20] it was 421 RLU.

B8: TCN-534 (5249_B02) (antibody, V domains shown)
VH: QVQLVQSGAEVKKPGSSVKVSCRESGGTFNGYTITWVRQAPGQGLEWMGGIIPMMGTVNYAQKLQGRVTITTDYFTKTAYMDLNNLRSEDTAMYYCVKIRYTGQQLLWGQGTLVTVSS
VL: DIQMTQSPSTLSASIGDRVTITCRASQSIASWLAWYQQKPGKAPKLLIYEAVNLESGVPSRFSGSGSGTDFTLTISSLQPDDFATYFCQHYGTISQTFGGGTKVEIK
B8: the “Trimeric HA Binding: RLU” value in assay [7] turned out to be 27 RLU; in assay [21], 8310 RLU; in [22], 11400 RLU; in assay [23], 21300 RLU.

For the origin of these results see patent publication US20120207760A1, “Compositions and Methods for the Therapy and Diagnosis of Influenza” (THERACLONE SCIENCES, published 2012).
